Pooled drug test results. Numbers come from NIAID ChemDB, via PubChem.

Common to all: host cell toxicity; cell line: PBMC; read-out: CC50

An empty or dashed field is not shown. Neighbouring rows are from separate reports. CCn is the concentration with n% toxicity to the cells.

compound	method	value
CC(=Nc1ccc(O)cc1)C1Sc2ncccc2C1=O	MTS	>100 µM
C=C(C)C12OCOC1C1C3OC3(CO)C(O)C3(O)C(=O)C(C)=CC3C1(O/C=C/C=C/CCC)C(C)C2OC(=O)c1ccccc1	fluorescence	>15 µM
COc1ccc(/C=N/NC(=O)CN2c3c(-c4ccccc4)n[nH]c3-c3ccccc3S2(=O)=O)c(OC)c1	-	74.4 µM
CN(CCc1ccc2c(n1)NCCC2)C(=O)NCc1ccc(Cl)c(Cl)c1	-	6.7 µM
CN(C)c1ccc(/C=N/NC(=O)CN2c3c(-c4ccccc4)n[nH]c3-c3ccccc3S2(=O)=O)cc1	-	>100 µM
Nc1nc(NC2CC2)c2ncn([C@H]3CO[C@@H](CO)O3)c2n1	MTT	>250 µM
O=C(CN1c2c(-c3ccccc3)n[nH]c2-c2ccccc2S1(=O)=O)N/N=C/c1ccc([N+](=O)[O-])cc1	-	≥100 µM
N[C@@H](CCCCNC1c2ccc3cc4c5c6c(cc7ccc8cc9cc1c1c9c9c8c7c6c9c6c1c2c3c56)C4)C(=O)O	trypan blue	>700 µM
Cc1ccc(NC(=O)CN2CCN(Cc3nc(-c4ccc(F)cc4)no3)CC2)cc1	absorbance	>100 µM
S=C(NCCC1=CCCCC1)Nc1ccc(Cl)cn1	-	>100 µM
CC(C)(C)[Si](C)(C)O[C@H]1[C@H](CO)O[C@@H](n2ccc(N)nc2=O)C1(F)F	-	>100 µM
CCCCCCCCCCCN1C=Cc2cc(OC)c(O)c3c2c1cc[n+]3CCCCCCCCCCC	-	3.3 µM
O=C(NCCc1ccc2c(n1)NCCC2)NCC1CCc2ccccc2C1	-	13 µM
O=c1[nH]cnc2c1ncn2[C@@H]1C=C(F)[C@H](CO)C1	-	>100 µM
O=S(=O)(Cc1ccc(Cl)c(Cl)c1)NCCc1ccc2c(n1)NCCC2	-	50 µM
NC(=O)C[C@H](NC(=O)CNC1c2ccc3cc4c5c6c(cc7ccc8cc9cc1c1c9c9c8c7c6c9c6c1c2c3c56)C4)C(=O)O	trypan blue	>280 µM
Cc1cn([C@H]2O[C@@H](CO)[C@H](O[Si](C)(C)C(C)(C)C)C2(F)F)c(=O)[nH]c1=O	-	>100 µM
CC(C)(C)OC(=O)N1[C@H](CO)CC(F)(F)[C@@H]1n1ccc(=O)[nH]c1=O	-	81.4 µM
COc1cc2ccnc3c2c(c1OS(=O)(=O)c1ccccc1)N(C)C=C3	-	10.4 µM
C[C@H]1[C@H](O)[C@@H](C)/C=C/C=C/C=C/C=C/C=C/C=C/C=C/[C@H](O[C@@H]2O[C@H](C)[C@@H](O)[C@H](N)[C@@H]2O)C[C@@H]2O[C@](O)(C[C@@H](O)C[C@@H](O)CC[C@H](O)[C@@H](O)C[C@@H](O)CC(=O)O[C@H]1C)C[C@H](O)[C@H]2C(=O)O	MTT	>50 µM
CC(C)=CC1Oc2cc(O)ccc2-c2oc3cc4c(c(O)c3c(=O)c21)C=CC(C)(C)O4	-	84.6 µM
O=C(NCCc1ccc2c(n1)NCCC2)Oc1ccc(Br)cc1	-	8.4 µM
Cc1cn([C@@H]2C=C(F)[C@H](CO)C2)c(=O)[nH]c1=O	-	>100 µM
COc1cc2c3c(ccnc3c1OC)NC=C2	-	<1 µM
O=C(NCCc1ccc2c(n1)NCCC2)Nc1ccc(C(F)(F)F)nc1	-	5 µM
Cc1cc(/C=C/c2cc3ccc(Cl)c(C)c3nc2Cl)c(C)s1	MTT	87 µM
CC(C)=CCOc1ccc2ccc(=O)oc2c1CC(=O)C(C)C	-	96.8 µM
COc1ccc(C(=O)/C=C/c2cc3ccc(Cl)c(C)c3nc2Cl)cc1OC	MTT	40.01 µM
CCCCCC[n+]1ccc2cc(OC)c(OC)c3c2c1C=CN3	-	3.2 µM
CC[C@@]1(O)C(=O)OCc2c1cc1n(c2=O)Cc2cc3c(CN(C)C)c(O)ccc3nc2-1	-	>0.125 µM
Cc1cn([C@H]2C=C[C@@H](COC(=O)NCCc3ccccc3Cl)O2)c(=O)[nH]c1=O	tetrazolium	53.2 µM
Nc1ncnc2c1ncn2C1OC(CO)C=C1F	-	>100 µM
O=C(CN1c2c(-c3ccccc3)n[nH]c2-c2ccccc2S1(=O)=O)N/N=C/c1cccc([N+](=O)[O-])c1	-	22 µM
COc1c(C)c(O)c(C(=O)C(C)C)c(O)c1Cc1c(O)c(C)c(O)c2c1OC(C)(C)CC2=O	-	1.3 µM
C=C(C)[C@@H]1CC[C@]2(C(=O)NCCCCCCCC(=O)N[C@@H](CC(C)C)[C@@H](O)CC(=O)O)CC[C@]3(C)[C@H](CC[C@@H]4[C@@]5(C)CC[C@H](O)C(C)(C)[C@@H]5CC[C@]43C)[C@@H]12	-	>10 µM
Nc1ncnc2c1ncn2[C@@H]1OC[C@H](/C=C/P(=O)(O)O)C12CC2	-	>100 µM
CC(=O)Nc1cccc(CCNC(=O)NCc2ccc(Cl)c(Cl)c2)n1	-	50 µM
O=c1cc(-c2ccc(O)cc2O)oc2cc(O)cc(O)c12	-	26.5 µM
Nc1nc2c(ncn2[C@@H]2OC[C@H](CCP(=O)(O)O)C23CC3)c(=O)[nH]1	-	>100 µM
CN(C)c1cccc(CCNC(=O)Nc2cccc(F)c2)n1	-	50 µM
Nc1ncnc2c1ncn2[C@@H]1O[C@@H](CO)[C@H](O)C1(F)F	-	>100 µM
Cc1csc(/C=C/c2cc3ccc(Cl)c(C)c3nc2Cl)c1	MTT	55.99 µM
O=C(NCCc1ccc2c(n1)NCCC2)Nc1ccc(Cl)cc1	-	1.3 µM
C[C@@H](CN[C@H](CN[C@H](CN[C@H](CNCCC(N)=O)Cc1ccc(O)cc1)Cc1ccc(O)cc1)Cc1ccc(O)cc1)NC[C@H](Cc1ccc(O)cc1)NC[C@H](Cc1ccc(O)cc1)NC[C@@H](N)Cc1ccc(O)cc1	MTS	75 µM
O=C(O)c1ccc2c(c1)nc(Nc1cccc(C(F)(F)F)c1)c1nc(NC3CC3)ncc12	-	>100 µM
COc1cc2ccnc3c2c(c1O)N(C)C=C3	-	1.1 µM
CC(C)c1c(Cc2ccccc2)n(COCc2ccccc2)c(=O)[nH]c1=O	XTT	166.6 µM
COc1ccc(/C=C/c2cc(Cl)c3ccccc3n2)c(OC)c1	MTT	10.46 µM
CCC(C)C(=O)c1c(O)c(C)c(OC)c(Cc2c(O)c(C)c(O)c3c2OC(C)(C)CC3=O)c1O	-	1.3 µM
CC(C)C([NH3+])C(=O)OC(C)C1C/C=C/CCC(O)C(C)(C)C2CCC(C)C3(O2)O[B-]24OC3C(=O)OC3COC(CCCC(O)C(C)(C)C5CCC(C)C(O5)(O2)C(O4)C(=O)O1)C3	-	4.3 µM
OC[C@@H]1C[C@H](n2cnc3c(=S)nc[nH]c32)[C@@H](O)[C@H]1O	-	>100 µM
COc1ccc(C(=O)/C=C/c2cc3ccc(Cl)c(C)c3nc2Cl)c(Br)c1	MTT	47.08 µM
CC(C)(C)OC(=O)N1[C@H](CO)CC(F)(F)[C@H]1n1cnc2ncnc(Cl)c21	-	59.5 µM
Nc1ccn([C@@H]2C=C(F)[C@H](CO)C2)c(=O)n1	-	>100 µM
COc1ccc(OC)c(CCNC(=O)OC[C@@H]2C=C[C@H](n3cc(C)c(=O)[nH]c3=O)O2)c1	tetrazolium	>100 µM
COc1ccccc1NC(=O)NCCc1ccc2c(n1)NCCC2	-	6 µM
CCCCCCCCCCCCCCCC[n+]1ccc2cc(OC)c(OC)c3c2c1C=CN3	-	1.5 µM
Cc1cn([C@H]2C=C[C@@H](COC(=O)NCCc3ccccc3)O2)c(=O)[nH]c1=O	tetrazolium	>100 µM
CC[n+]1ccc2cc(OC)c(OC)c3c2c1C=CN3	-	95.7 µM
Cc1cn([C@H]2C=C[C@@H](COC(=O)NCCc3ccccn3)O2)c(=O)[nH]c1=O	tetrazolium	>100 µM

8 of the rows above, restated:

| compound | method | value |
|---|---|---|
| Nc1nc2c(ncn2[C@@H]2OC[C@H](CCP(=O)(O)O)C23CC3)c(=O)[nH]1 | - | >100 µM |
| O=C(CN1c2c(-c3ccccc3)n[nH]c2-c2ccccc2S1(=O)=O)N/N=C/c1cccc([N+](=O)[O-])c1 | - | 22 µM |
| OC[C@@H]1C[C@H](n2cnc3c(=S)nc[nH]c32)[C@@H](O)[C@H]1O | - | >100 µM |
| COc1ccc(C(=O)/C=C/c2cc3ccc(Cl)c(C)c3nc2Cl)c(Br)c1 | MTT | 47.08 µM |
| CCC(C)C(=O)c1c(O)c(C)c(OC)c(Cc2c(O)c(C)c(O)c3c2OC(C)(C)CC3=O)c1O | - | 1.3 µM |
| Cc1cn([C@H]2C=C[C@@H](COC(=O)NCCc3ccccc3)O2)c(=O)[nH]c1=O | tetrazolium | >100 µM |
| CC(=O)Nc1cccc(CCNC(=O)NCc2ccc(Cl)c(Cl)c2)n1 | - | 50 µM |
| O=C(NCCc1ccc2c(n1)NCCC2)Nc1ccc(Cl)cc1 | - | 1.3 µM |